Laboratory results as given in patent US20060063727, “Tr4/tr2 response elements” (published 2006).

Legend:
[1] = target: T1, TR2 orphan receptor (TR2-11, NR2C1) (Homo sapiens) (UniProt P13056); test: activity in cells; conditions: CHO cells, protein in cells, only the site is given
T1 sequence: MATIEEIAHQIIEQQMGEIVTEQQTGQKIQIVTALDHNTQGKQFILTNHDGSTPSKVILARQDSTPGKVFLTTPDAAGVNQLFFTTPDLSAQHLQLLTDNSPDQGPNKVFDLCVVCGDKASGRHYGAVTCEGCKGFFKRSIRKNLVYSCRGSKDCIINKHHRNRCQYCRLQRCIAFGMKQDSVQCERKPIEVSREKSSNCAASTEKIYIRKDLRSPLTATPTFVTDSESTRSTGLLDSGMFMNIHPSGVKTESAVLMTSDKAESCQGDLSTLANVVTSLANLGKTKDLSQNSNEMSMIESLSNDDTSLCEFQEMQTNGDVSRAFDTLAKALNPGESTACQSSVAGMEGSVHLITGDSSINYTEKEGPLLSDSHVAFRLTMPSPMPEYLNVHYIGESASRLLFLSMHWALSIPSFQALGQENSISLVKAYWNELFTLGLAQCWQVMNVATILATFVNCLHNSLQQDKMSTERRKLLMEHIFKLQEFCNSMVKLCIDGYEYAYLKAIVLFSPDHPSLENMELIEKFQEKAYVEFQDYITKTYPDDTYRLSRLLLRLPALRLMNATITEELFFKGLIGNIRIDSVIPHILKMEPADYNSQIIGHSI

[2] = target: T2, TR4 orphan receptor (NR2C2) (Homo sapiens) (UniProt P49116); test: activity in cells; conditions: CHO cells, protein in cells, only the site is given
T2 sequence: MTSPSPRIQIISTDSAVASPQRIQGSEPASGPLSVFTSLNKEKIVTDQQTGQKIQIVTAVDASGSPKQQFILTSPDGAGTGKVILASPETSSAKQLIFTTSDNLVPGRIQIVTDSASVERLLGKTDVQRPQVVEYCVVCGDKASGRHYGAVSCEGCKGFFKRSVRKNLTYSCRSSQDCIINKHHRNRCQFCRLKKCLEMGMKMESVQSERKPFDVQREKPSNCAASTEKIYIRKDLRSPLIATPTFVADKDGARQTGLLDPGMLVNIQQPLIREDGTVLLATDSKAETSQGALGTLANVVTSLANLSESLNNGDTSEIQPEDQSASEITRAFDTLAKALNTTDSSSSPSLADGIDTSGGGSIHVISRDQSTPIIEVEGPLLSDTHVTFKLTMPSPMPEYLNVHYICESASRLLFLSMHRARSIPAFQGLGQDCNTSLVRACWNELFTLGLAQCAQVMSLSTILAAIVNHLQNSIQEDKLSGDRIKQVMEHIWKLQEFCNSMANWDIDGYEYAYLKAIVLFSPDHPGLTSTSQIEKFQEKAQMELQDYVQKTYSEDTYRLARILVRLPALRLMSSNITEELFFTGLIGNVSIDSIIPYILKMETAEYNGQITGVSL

[3] = -32TK-CAT reporter induced, both orientations
[4] = [none], dose-dependent CAT induction, letters built from the parent sequence and the stated change

Sequence	activity on this sequence [1, 3]	activity on this sequence [2, 3]	activity on this sequence [1, 4]	activity on this sequence [2, 4]
ATGTCACCCTAGTTCA (double strand) [HPV-16 DR4RE]	active	active		
ATGTCACCCTAGTTCA (double strand) [HPV-16 LCR]			active	active

Tags and fusion partners may be left off the protein sequences shown. For some of these results: The exact form of at least one protein or probe is not confirmed.
